Assay results as given in patent US8884011B2, “Nucleotide analogues as precursor molecules for antivirals” (Centre National de la Recherche Scientifique-CNRS, priority 2006, dated 2014).
Several values for one entry are separate records, joined by “and”; a condition that tells them apart may be missing. Identical values can stand only once.

The compounds below were run on K65R mutant RT of HIV-1.
Assay type: biochemical
In the case of `Nc1ncnc2c1ncn2CCOCP(=O)(O)OP(=O)(O)OP(=O)(O)O` [PMEApp, PMEA diphosphate], the “Resistance = Selectivity mutant RT/Selectivity wild-type RT” value is reported as 2.16 and 2.2. `C[C@H](Cn1cnc2c(N)ncnc21)OCP(O)(=S)OP(=O)(O)OP(=O)(O)O` (stereo partly drawn) [Compound 13, (R)-9-[2-(pyrophosphoroxythiophosphonomethoxy)propyl]adenine] was tested, and the “Resistance = Selectivity mutant RT/Selectivity wild-type RT” value was 1. `C[C@@H](Cn1cnc2c(N)ncnc21)OCP(=O)(O)OP(=O)(O)OP(=O)(O)O` [PMPApp, PMPA diphosphate] was tested, and the “Resistance = Selectivity mutant RT/Selectivity wild-type RT” value was 4.45 and 4.4. `Nc1ncnc2c1ncn2CCOCP(O)(=S)OP(=O)(O)OP(=O)(O)O` (stereo not shown) [Compound 12, 9-[2-(diphosphorylthiophosphonomethoxy)ethyl]adenine] was tested, and the “Resistance = Selectivity mutant RT/Selectivity wild-type RT” value was 2.8.
